{
  "source": "patent US9266930",
  "binders": {"B1": {"name": "[…] (P. falciparum LSA, position 4, 10 amino acids; Seq. Id 309) (peptide)", "peptide": "ILYISFYFIL", "modifications": "not checked"}, "B2": {"name": "[…] (P. falciparum LSA, position 1585, 9 amino acids; Seq. Id 324) (peptide)", "peptide": "KLQEQQSDL", "modifications": "not checked"}, "B3": {"name": "[…] (P. falciparum LSA, position 3, 10 amino acids; Seq. Id 296) (peptide)", "peptide": "HILYISFYFI", "modifications": "not checked"}},
  "data": [
    {"target": "HLA-A*0201 (Human)", "values": [
      {"binder": "B1", "binding affinity ratio (IC50 of standard peptide / IC50 of test peptide)": 0.0035},
      {"binder": "B2", "binding affinity ratio (IC50 of standard peptide / IC50 of test peptide)": 0.0019},
      {"binder": "B3", "binding affinity ratio (IC50 of standard peptide / IC50 of test peptide)": 0.0033}
    ]}
  ]
}
